Source: US20250171511A1, “ANTIVIRAL PEPTIDES AND METHODS OF USE THEREOF” (Versitech Limited, priority 2021, published 2025)

System: SARS-CoV-2
Assay: Plaque reduction assay against SARS-CoV-2
Assay type: cell-based
Details: PBS (150 mM) versus […])

`CC[C@H](C)[C@H](NC(=O)[C@H](C)NC(=O)CN)C(=O)N[C@@H](CS)C(=O)N[C@@H](Cc1c[nH]cn1)C(=O)N1CCC[C@H]1C(=O)N[C@H](C(=O)N[C@@H](Cc1ccccc1)C(=O)N[C@@H](CS)C(=O)N1CCC[C@H]1C(=O)N[C@@H](CCCNC(=N)N)C(=O)N[C@@H](CCCNC(=N)N)C(=O)N[C@@H](Cc1ccc(O)cc1)C(=O)N[C@@H](CCCCN)C(=O)N[C@@H](CCC(N)=O)C(=O)N[C@H](C(=O)NCC(=O)N[C@H](C(=O)N[C@@H](CS)C(=O)NCC(=O)N[C@@H](CC(C)C)C(=O)N1CCC[C@H]1C(=O)NCC(=O)N[C@H](C(=O)N[C@@H](CCCCN)C(=O)N[C@@H](CS)C(=O)N[C@@H](CS)C(=O)N[C@@H](CCCCN)C(=O)N[C@@H](CCCCN)C(=O)N1CCC[C@H]1C(=O)O)[C@@H](C)O)[C@@H](C)O)[C@@H](C)CC)C(C)C` [Peptide H30] (H-GAICHPVFCPRRYKQIGTCGLPGTKCCKKP-OH; N-terminus and C-terminus assumed) was tested, and the “antiviral activity against SARS-CoV-2” value was “inhibited SARS-CoV-2 in PBS but more effective in low salt condition”.

Where a SMILES comes first, the peptide text is derived from it.
